A mixed list of measured activities; the numbers were collected in NIAID ChemDB.

All rows: toxicity to cultured cells; read-out: CC50

Conditions beyond the fields shown may differ between rows.

compound	read by	cells	value
CN(C)C(=O)Oc1ccc(Cl)cc1C(=O)Nc1ccc(Cl)cc1	MTT	HepG2 cell	188.7 µM
OC[C@H]1O[C@@H](n2cnc3c(NC4CCCCCC4)cc(Cl)nc32)C[C@@H]1O	MTT	Sheep chondrocytes G81092	230 µM
COc1cc2oc(=O)c(-c3ccc(O)cc3O)cc2c(OC)c1CC=C(C)C	WST	Huh7.5	25 µg/mL
C/C(=C/CC[C@@H](C)[C@H]1CC[C@@]2(C)C3CCC4C(C)(C)C(=O)CC[C@@]45CC35CC[C@]12C)C(=O)O	MTT	BEL-7402	14.27 µM
FC(F)(F)c1ccc(NC(=S)NCCc2ccccn2)nc1		HUMAN SPERM	>500 µM
Cc1cn([C@H]2C[C@H](N=[N+]=[N-])[C@@H](CO)O2)c(=O)[nH]c1=O	MTT	HuT-78	>10 µM
CN(C(=O)Oc1ccc(Cl)cc1C(=O)Nc1ccc(F)cc1)c1ccccc1	MTT	HepG2 cell	512 µM
O=c1oc2c(O)c(O)cc3c(=O)oc4c(O)c(O)cc1c4c23	ATP	BJ	>26 µM
OC[C@@H](O)[C@@H]1NC[C@@H](O)[C@H]1O		Karpas 45 cells	>160 µg/mL
C[C@H]1[C@H](C)CC[C@]2(C(=O)O)CC[C@]3(C)C(=CC[C@@H]4[C@@]5(C)CC[C@H](O)C(C)(C)[C@@H]5CC[C@]43C)[C@H]12	ATP	RAJI	>26 µM
O=C(Nc1ccccc1)c1ccccc1OC(=O)N(c1ccccc1)c1ccccc1	MTT	HepG2 cell	211.1 µM
S=C(NCCc1ccccn1)Nc1ccccn1		Human vaginal epithelial	>1000 µM
Nc1nccc2c1ncn2[C@@H]1C=C[C@@H](O)[C@H]1O		PRK	8.9 µg/mL
CC[C@H](/C=C/[C@@H](C)[C@H]1CCC2C3CC=C4C[C@@H](O)CC[C@]4(C)[C@@]3(C)CC[C@@]21C)C(C)C	ATP	BJ	>26 µM
CN1[C@@H]2CC[C@H]1CC(OC(=O)C(CO)c1ccccc1)C2		HeLa	>1.3 µM
C/C=C\C=C\C/C=C\CCCCCCCc1cccc(O)c1O	WST	PC-3	4.56 µM
NC[C@H]1O[C@H](O[C@H]2[C@H](O)[C@@H](O)[C@H](N)C[C@@H]2N)[C@H](N)[C@@H](O)[C@@H]1O		HeLa	>200 µg/mL
OC[C@H]1O[C@@H](n2cnc3c(NC4CC4)ncnc32)C[C@@H]1O	MTT	Sheep chondrocytes G81092	312 µM
COc1ncnc(N2CC[N+]3(CC2)CC[N+]2(CCN(c4ncnc(OC)c4[N+](=O)[O-])CC2)CC3)c1[N+](=O)[O-]		L929	>304.2 µg/mL
CC(C)[C@@H](C)/C=C/[C@@H](C)[C@H]1CC[C@H]2C3=CC=C4C[C@@H](O)CC[C@]4(C)[C@H]3CC[C@]12C		HeLa	>200 µg/mL
Oc1ccc(CCNC(=S)Nc2ccc(Br)cn2)cc1		HUMAN SPERM	233 µM
Cc1nc(N2CC[N+]3(CC2)CC[N+]2(CCN(c4nc(C)nc5c4no[n+]5[O-])CC2)CC3)c2c(no[n+]2[O-])n1		K562	>334.8 µg/mL
CC(=O)N[C@H]1CN[C@H](CO)[C@H](O)[C@@H]1O		Karpas 45 cells	>190 µg/mL
ClCN1CC[N+]2(CC1)CC[N+]1(CCN(CCl)CC1)CC2		GMK	>507.4 µg/mL
NC(=S)N=Nc1c(O)[nH]c2ccccc12	MTT / absorbance	Human foreskin fibroblasts	9 µM
O=C(CCCc1ccccc1)N1CC[N+]2(CC1)CC[N+]1(CCN(C(=O)CCCc3ccccc3)CC1)CC2		K562	235.4 µg/mL
Nc1nc(Cl)nc2c1ncn2/C=C1/CC1CO		H-1	1.4 µM
OC[C@@H](O)C(O)[C@@H](O)CO		HeLa	>200 µg/mL
CN1C[C@H](O)[C@@H](O)[C@@H]1CO		Karpas 45 cells	>100 µg/mL
[2H]C([2H])(O)[C@@]1(C#C)O[C@@H](n2cnc3c(N)nc(F)nc32)C[C@@H]1O	luminescence	MT4-GFP	>42 µM
C[N+]1(C)CCN(c2ncnc(Cl)c2[N+](=O)[O-])CC1		GMK	>500.5 µg/mL
COc1c(CC=C(C)C)c(O)cc2oc(=O)c3c(c12)Cc1cc(O)ccc1-3	WST	Huh7.5	35.5 µg/mL
[2H]C#C[C@]1(CO)O[C@@H](n2ccc3c(N)nc(Cl)nc32)C[C@@H]1O	luminescence	MT4-GFP	>42 µM
Nc1nc(Cl)nc2c1ncn2/C=C1\CC1CO		H-1	>100 µM
OC[C@@H]1CC[C@H](n2cnc3c(NC4CCCCCC4)ncnc32)O1		Sheep chondrocytes G81092	308 µM
Nc1nc(N)c2ncn([C@H]3CO[C@@H](CO)O3)c2n1		CBMC	>500 µM
Cc1cc(Cl)c([N+](=O)[O-])c(N2CC[N+]3(CC2)CC[N+]2(CCN(c4nc(C)cc(Cl)c4[N+](=O)[O-])CC2)CC3)n1		K562	>313.3 µg/mL
Nc1nc2c(ncn2[C@H]2CO[C@@H](CO)O2)c(=O)[nH]1		HSF	≥500 µM
N#Cc1ccc(N2CC[N+]3(CC2)CC[N+]2(CCN(c4ccc(C#N)cc4[N+](=O)[O-])CC2)CC3)c([N+](=O)[O-])c1		GMK	>339.3 µg/mL
Nc1nc2c(ncn2CCOCP(=O)(O)O)c(=O)[nH]1		CrFK	5.6 µM
C/C=C/c1ccc2c(c1)[C@H](C)[C@@H](c1ccc(OC)c(OC)c1)O2	sulforhodamine / absorbance	HT-29	40.3 µM
Cc1cn([C@H]2C[C@H](N=[N+]=[N-])[C@@H](CO)O2)c(=O)[nH]c1=O		HSF	>10 µM
C=CC/C=C\C/C=C\CCCCCCCc1cccc(O)c1O	WST	PC-3	4.53 µM
O=C1N[C@@H](CO)[C@H](O)[C@@H](O)[C@H]1O		Karpas 45 cells	>500 µg/mL
O=c1[nH]cnc2c1ncn2[C@H]1CC[C@@H](CO)O1		HELA-CD4+	3.5 µM
CC1(C)[C@@H](O)CC[C@]2(C)[C@H]3C(=O)C=C4[C@@H]5C[C@@](C)(C(=O)O)CC[C@]5(C)CC[C@@]4(C)[C@]3(C)CC[C@@H]12	WST	Huh7.5	77.4 µg/mL
S=C(NCCC1=CCCCC1)Nc1ccc(Cl)cn1		HUMAN SPERM	57 µM
O=C1C(=O)N(CCCNc2ccnc3cc(Cl)ccc23)c2cc(Br)ccc21	MTT / absorbance	Human foreskin fibroblasts	3.75 µM
O=C(O)[C@H]1NC[C@@H](O)[C@@H]1O		Karpas 45 cells	>150 µg/mL
Nc1ccn([C@H]2CC[C@@H](CO)O2)c(=O)n1		DU145	5 µM
COC(=O)CCCCCN1C[C@@H](O)[C@H](O)[C@H](O)[C@@H]1C		Karpas 45 cells	>250 µg/mL
OC[C@H]1O[C@@H](n2cnc3c(NC4CCCC4)cc(Cl)nc32)[C@H](O)[C@@H]1O	MTT	Sheep chondrocytes G81092	260 µM
CC(C)CN(C[C@@H](O)[C@H](Cc1ccc(F)cc1)NC(=O)O[C@H]1CCO[C@H]2OCC[C@H]21)S(=O)(=O)c1ccc2nc(NC(C)C)sc2c1	MTT	KG-1-C	>100 µM
OC(CCl)CN1CC[N+]2(CC1)CC[N+]1(CCN(CC(O)CCl)CC1)CC2		K562	>415.5 µg/mL
CO[C@H](C)[C@@H](NC(=O)[C@@H]1CCCN1C)[C@@H]1O[C@@H](SCCOC(=O)c2ccccc2O)[C@@H](O)[C@H](O)[C@H]1O		HeLa	50 µg/mL
COC(=O)N[C@H](C(=O)N[C@@H](Cc1ccccc1)[C@@H](O)CN(Cc1ccc(-c2ccccn2)cc1)NC(=O)[C@@H](NC(=O)OC)C(C)(C)C)C(C)(C)C	MTT	KG-1-C	>100 µM
C[C@@H]1CC[C@H]2[C@@H](C)C(=O)O[C@@H]3OC4(C)CC[C@@H]1[C@]32OO4		Huh 5-2	>177 µM
C[C@@H]1NC(=O)[C@@H](O)[C@H](O)[C@@H]1O		Karpas 45 cells	>100 µg/mL
O=C(O)C(Cc1ccc(I)cc1)Nc1nc(-c2ccc(Cl)c(Cl)c2)cs1		THP-1 monocytes	<50 µg/mL
OC1C(O)C(O)C(O)C(O)C1O	ATP	HEK 293	>26 µM
C=C(C)[C@@H]1CCC2[C@]3(CC[C@]4(C)[C@@H]([C@H](C)CC/C=C(/C)C(=O)O)CC[C@@]24C)C[C@]13CCC(=O)O	MTT	BEL-7402	>50 µM
O=C(Nc1ccc(Cl)cc1)c1cc(Cl)ccc1OC(=O)N(c1ccccc1)c1ccccc1	MTT	HepG2 cell	>100 µM
S=C(NCCc1cccc(Cl)c1)Nc1ccc(Br)cn1		HUMAN SPERM	>500 µM
OC[C@H]1O[C@@H](n2cnc3c(NC4CC4)ncnc32)[C@H](O)[C@@H]1O	MTT	Sheep chondrocytes G81092	105 µM
[2H][C@]1(O)C[C@H](n2cc(F)c3c(N)ncnc32)O[C@]1(C#C)CO	luminescence	MT4-GFP	31.9 µM
Nc1nc(Cl)nc2c1ncn2[C@H]1C[C@H](O)[C@@H](CO)O1		Sheep chondrocytes G81092	<50 µM
C/C=C/c1ccc2c(c1)[C@H](C)[C@@H](c1ccc(O)cc1)O2	sulforhodamine / absorbance	P-388	32.4 µM
Nc1ncnc2c1ncn2[C@@H]1C=C[C@@H](O)[C@H]1O		MA-104	>100 µg/mL
CC/C=C\C[C@@H]1[C@@H](CC(=O)OC)CC[C@H]1O	ATP	BJ	>26 µM
C=C1C(C(C)C2CC=C(C)C(=O)O2)=CC[C@]2(C)C1C[C@]1(O)C=C3C=CC(=O)OC(C)(C)C3CCC21	MTT	HL-60	3.96 µM
Nc1[nH]c(=O)nc2c1ncn2/C=C1/C[C@H]1CO		H-1	86 µM
[2H]C(O)[C@@]1(C#C)O[C@@H](n2cnc3c(N)nc(F)nc32)C[C@@H]1O	luminescence	MT4-GFP	>42 µM
NC(=S)N=Nc1c(O)n(CN2CCN(c3ccnc4cc(Cl)ccc34)CC2)c2cccc(Br)c12	MTT / absorbance	Human foreskin fibroblasts	8 µM
CC1(C)[C@@H](O[C@@H]2O[C@H](C(=O)O)[C@@H](O)[C@H](O)[C@H]2O)CC[C@]2(C)[C@H]3C(=O)C=C4[C@@H]5C[C@@](C)(C(=O)O)CC[C@]5(C)CC[C@@]4(C)[C@]3(C)CC[C@@H]12	WST	Huh7.5	>30 µg/mL
OC[C@H]1NC[C@H](O)[C@@H]1O		Karpas 45 cells	>130 µg/mL
COc1cc2c(cc1OC)-c1c3c(cc4ccnc(c14)C2=O)OCO3	sulforhodamine / absorbance	HT-29	38.4 µM
COc1cccc(CCNC(=S)Nc2ccc(Br)cn2)c1		HUMAN SPERM	>500 µM
C=CC(C)(C)c1cc(/C=C/C(=O)c2ccc(O)cc2)c(OC)cc1O	WST	Huh7.5	20 µg/mL
O=Nc1c(-c2c(O)[nH]c3ccccc23)[nH]c2ccccc12	MTT	PM1	>4 µM
CC[C@H](CC[C@@H](C)[C@H]1CCC2C3CC=C4C[C@@H](O)CC[C@]4(C)[C@@]3(C)CC[C@@]21C)C(C)C	ATP	BJ	>26 µM
Nc1ncnc2c1ncn2[C@H]1C[C@H](O)[C@@H](CO)O1		MDBK	250 µM
[2H][C@@]1(O)C[C@H](n2cnc3c(N)nc(F)nc32)O[C@]1(C#C)CO	luminescence	MT4-GFP	>42 µM
Nc1cc(Cl)nc2c1ncn2[C@@H]1O[C@H](CO)C[C@H]1O	MTT	Sheep chondrocytes G81092	>400 µM
Nc1ncnc2c1ncn2CCOCP(=O)(O)O		F-PBMC	24 µM

The first 5 rows once more:

| compound | read by | cells | value |
|---|---|---|---|
| CN(C)C(=O)Oc1ccc(Cl)cc1C(=O)Nc1ccc(Cl)cc1 | MTT | HepG2 cell | 188.7 µM |
| OC[C@H]1O[C@@H](n2cnc3c(NC4CCCCCC4)cc(Cl)nc32)C[C@@H]1O | MTT | Sheep chondrocytes G81092 | 230 µM |
| COc1cc2oc(=O)c(-c3ccc(O)cc3O)cc2c(OC)c1CC=C(C)C | WST | Huh7.5 | 25 µg/mL |
| C/C(=C/CC[C@@H](C)[C@H]1CC[C@@]2(C)C3CCC4C(C)(C)C(=O)CC[C@@]45CC35CC[C@]12C)C(=O)O | MTT | BEL-7402 | 14.27 µM |
| FC(F)(F)c1ccc(NC(=S)NCCc2ccccn2)nc1 |  | HUMAN SPERM | >500 µM |

CCn is the concentration with n% toxicity to the cells. An empty or dashed field is not shown.